The data set has as its system SipB. Also on record: species or system S. Typhimurium. The following applies: ITC binding stoichiometry n, individual replicates, Supplementary Figure 19a. How it is done: ITC measurements were carried out at 20 °C with a Nano ITC Standard Volume isothermal calorimeter (TA Instruments, New Castle, DE) controlled by the ITCRun software. The N-terminal His6 tags of all purified proteins were removed before ITC analysis. For titrations with DPD/AI-2 (Omm Scientific), the tag-free proteins were dialyzed against a Tris buffer (25 mM Tris-HCl, 150 mM NaCl, pH 7.5) and diluted to 70 μM, while DPD/AI-2 was diluted with the same buffer to 700 μM. […] After being degassed, 1 ml of the protein and 250 μl of the ligand solution were added to the sample cell and the syringe, respectively. There were 25 injections per experiment and the stirring speed was 200 rpm. In control experiments, the ligand solution was titrated into the buffer in the sample cell to obtain the heat of dilution. Microcalorimetric data were corrected by subtracting the heats of dilution and fit to the independent binding site model using the NanoAnalyze software.
Supplementary Fig. 19 Isotherms representing binding of SicA and its variants with InvF, SipB and SipC as measured by ITC
ITC data and plots of injected heat for 25 automatic injections of 100 μM SicA (a, d, f),SicAK27A (b) or SicAN70A (c, e, g) into the sample cellcontaining 10 μM SipB (a-c), InvF (d, e), or SipC (f,g) are shown inthe upper and lower plots, respectively. […]

Where “and” joins values, the source holds several entries; their conditions need not be identical. Equal values may be shown once.

We go through 1 substance from paper PMC9637222, “Autoinducer-2 and bile salts induce c-di-GMP synthesis to repress the T3SS via a T3SS chaperone” (Nature Communications, 2022).

For SicA, the “n, SicA binding to SipB” value was 1.08 and 1.16 and 1.05.
